Experimental data reported in patent US20200085783A1 (priority 2013, published 2020).
Where two headings read alike, the source gives them in different places.

Legend:
[1] = tested on: human Hs683 oligodendroglioma cells; assay: Quantitative videomicroscopy
[2] = tested on: human U373n glioblastoma cells; assay: Quantitative videomicroscopy
[3] = PLTX pharmacokinetics, plasma concentration after s.c. administration; settings: mice, s.c. 2 μg/kg
[4] = tested on: leukaemia cell lines (K562, JURKAT, U937 and MOLM14); assay: Apoptosis induction in leukaemia cell lines; settings: down-regulation of BID, MCL-1, BCL-2, BCL-xL, caspase activation; data not shown
cancer cell lines = assay: MTT colorimetric assay, cancer cell line panel (mean, comparison with normal cells)
K562 = assay: Growth inhibitory effects on leukaemia cell lines in vitro; settings: read-out: IC50 in vitro growth inhibitory concentration by 50%
MOLM14 = assay: as above; settings: read-out: IC50 in vitro growth inhibitory concentration by 50%; MOLM14, 10 h
JURKAT = assay: as above
U937 = assay: as above; settings: read-out: IC50 in vitro growth inhibitory concentration by 50%
[5] = tested on: MSC (fibroblast primoculture); assay: MTT colorimetric assay, in vitro growth inhibition
NHDF (dermal fibroblast) = assay: MTT colorimetric assay, in vitro growth inhibition
murine P388 cell lines = settings: Quinn et al. (1974); cited from earlier work

In the case of Palytoxin, the “time after treatment at which cells began to die” value ([1]; Hs683, 0.01 nM PLTX) is reported as “about 3 h”, the “time post-treatment at which all cells died” value ([1]; Hs683, 1 nM PLTX) is reported as 1 h and the “morphological appearances of treated cells” value ([1]; Hs683, 1 nM PLTX for 1 h) is reported as “cell swelling and bubbling”. For the same substance, the “time after treatment at which cells begin to die” value ([2]; 0.01 nM PLTX) was “about 5 h”, the “time post-treatment at which all cells die” value ([2]; 1 nM PLTX) was 3 h and the “morphological appearances of treated cells” value ([2]; 1 nM PLTX for 3 h) was “cell swelling and bubbling”. The “maximal plasmatic concentration relative to efficient PLTX concentration on leukemic human cell lines” value [3] was 100 fold, the “time of maximal PLTX plasmatic concentration following the injection” value [3] was 1 h and the PLTX plasmatic concentration ([3]; 0.5 h) was 0.5-1^ nM. The PLTX plasmatic concentration ([3]; 1 h) was 3 to 5 nM, the PLTX plasmatic concentration ([3]; 3 h) was 1 to 1.5 nM and the “apoptosis in leukaemia cell lines” value [4] was “induces apoptosis”. For the same substance, the “lower sensitivity of normal cells (MSC, NHDF) than cancer cells to PLTX-mediated in vitro growth inhibition” value (cancer cell lines; normal versus cancer cells, MTT, 72 h) was 10^6, the IC50 (cancer cell lines; read-out: IC50 concentration in various cancer cell lines, various cancer cell lines) was less than 1 pM and the IC50 (K562; K562, 2 h) was 0.0521 nM. It also gave an IC50 (K562; K562, 4 h) of 0.0328 nM, an IC50 (K562; K562, 6 h) of 0.0285 nM and an IC50 (K562; K562, 8 h) of 0.0249 nM. For the same substance, the IC50 (MOLM14) was 0.0103 nM, the IC50 (JURKAT; read-out: IC50 in vitro growth inhibitory concentration by 50%, 2 h) was 0.0128 nM and the IC50 (JURKAT; read-out: IC50 in vitro growth inhibitory concentration by 50%, 4 h) was 0.0135 nM. It also gave an IC50 (JURKAT; read-out: IC50 in vitro growth inhibitory concentration by 50%, 6 h) of 0.00882 nM, an IC50 (JURKAT; read-out: IC50 in vitro growth inhibitory concentration by 50%, 8 h) of 0.00871 nM and an IC50 (U937; U937, 2 h) of 0.0248 nM. For the same substance, the IC50 (U937; U937, 4 h) was 0.0273 nM, the IC50 (U937; U937, 6 h) was 0.014 nM and the IC50 (U937; U937, 8 h) was 0.00905 nM. The IC50 [5] was greater than 10 µM, the IC50 (NHDF (dermal fibroblast)) was greater than 10 µM and the activity on leukaemia (murine P388 cell lines) was “only a marginal activity”.
